Pooled drug test results. Numbers come from NIAID ChemDB, via PubChem.

Shared fields: growth or infection tests; organism: Rhinovirus

An empty or dashed field is not shown. Neighbouring rows are from separate reports. ECn is the concentration giving n% inhibition of infection, replication or growth. MIC50, MIC90 and the like: level of inhibition, or share of isolates inhibited. Percent inhibition refers to the dose given; in toxicity tests it is the harm to the cells.

CN(C)c1nc(C(F)(F)F)nc2c1ncn2Cc1ccc(Cl)cc1Cl ; dose: 8 µM ; method: plaque count ; strain or isolate: Serotype 21 ; cell line: M-HELA ; measure: inhibition ; value: 30%
CCOC(=O)c1ccc(OCCCCC(=O)c2ccc(F)cc2)cc1 ; strain or isolate: serotype 1A 1B 2 6 14 15 21 22 25 29 30 41 42 45 59 63 67 70 72 86 89 ; measure: MIC80 ; value: >290 µM
Cc1cc(CCCCCCCOc2ccc(-c3nnc(C)o3)cc2)on1 ; strain or isolate: serotype 2 1A 1B 6 14 21 22 15 25 30 50 67 89 86 41 ; measure: MIC80 ; value: 3.2 µg/mL
Cc1ccc(C(=O)CCCCOc2ccc(C3=NCCO3)cc2)cc1Cl ; strain or isolate: serotype 1A 1B 2 6 14 15 21 22 25 29 30 41 42 45 59 63 67 70 72 86 89 ; measure: MIC80 ; value: >269 µM
CN(C)c1ccc(Cn2cnc3c(N(C)C)nc(C(F)(F)F)nc32)cc1 ; method: plaque count ; strain or isolate: Serotype 14 ; cell line: M-HELA ; measure: EC50 ; value: >8 µM
O=P1(O)OCC2O[C@@H](n3cnc4c(NO)ncnc43)[C@H](O)C2O1 ; strain or isolate: TYPE 1A ; measure: MIC ; value: 100 µg/mL
Fc1cccc(Nc2nc(C(F)(F)F)nc3c2ncn3Cc2ccccc2F)c1 ; method: plaque count ; strain or isolate: Serotype 2 ; cell line: M-HELA ; measure: EC50 ; value: 5.1 µM
CN(C)c1nc(C(F)(F)F)nc2c1ncn2Cc1ccc(F)cc1 ; dose: 8 µM ; method: plaque count ; strain or isolate: Serotype 2 ; cell line: M-HELA ; measure: inhibition ; value: 27%
CCOC(=O)c1ccc(OCCCCC(=O)c2ccc(C)c(C)c2)cc1 ; strain or isolate: serotype 1A 1B 2 6 14 15 21 22 25 29 30 41 42 45 59 63 67 70 72 86 89 ; measure: MIC80 ; value: >146 µM
O=S(=O)(O)c1cc(O)c2c(O)c(N=Nc3ccccc3)c(S(=O)(=O)O)cc2c1 ; dose: 50 µg/mL ; method: cytopathic effect ; cell line: Human embryonic lung cells ; measure: inhibition ; value: 90%
Cc1cc(CCCCCOc2cc(Cl)c(-c3nnco3)c(Cl)c2)on1 ; strain or isolate: serotype 2 1A 1B 6 14 21 22 15 25 30 50 67 89 86 41 ; measure: MIC80 ; value: 0.91 µg/mL
CCOC(=O)/C=C/[C@H](C[C@@H]1CCNC1=O)NC(=O)[C@@H](CC(=O)[C@@H](NC(=O)c1cc(C)on1)C(C)C)Cc1ccc(F)cc1 ; method: cytopathic effect / visual reading ; strain or isolate: Isolate 30 ; cell line: OHIO HELA-I ; measure: EC50 ; value: 0.02 µg/mL
Fc1cccc(Cn2cnc3c(Nc4cccc(F)c4)nc(C(F)(F)F)nc32)c1 ; method: plaque count ; strain or isolate: Serotype 12 ; cell line: M-HELA ; measure: EC50 ; value: 4.4 µM
Cc1cc(CCCCCOc2cc(Cl)c(-c3nnc(C)o3)c(Cl)c2)on1 ; strain or isolate: Serotype 15 ; measure: MIC80 ; value: 0.42 µg/mL
Cc1ccc(C(=O)Nc2ccc(S(=O)(=O)O)c3cc(S(=O)(=O)O)cc(S(=O)(=O)O)c23)cc1NC(=O)c1cccc(NC(=O)Nc2cccc(C(=O)Nc3cc(C(=O)Nc4ccc(S(=O)(=O)O)c5cc(S(=O)(=O)O)cc(S(=O)(=O)O)c45)ccc3C)c2)c1 ; dose: 10 µg/mL ; method: cytopathic effect ; cell line: Human amnion AV3 cells ; measure: inhibition ; value: 40%
Cc1ccccc1Cn1cnc2c(N(C)C)nc(C(F)(F)F)nc21 ; method: plaque count ; strain or isolate: Serotype 14 ; cell line: M-HELA ; measure: EC50 ; value: >8 µM
COc1ccc(C(=O)CCCCOc2ccc(C#N)cc2)cc1 ; strain or isolate: serotype 1A 1B 2 6 14 15 21 22 25 29 30 41 42 45 59 63 67 70 72 86 89 ; measure: MIC80 ; value: >194 µM
O=P1(O)OCC2O[C@@H](n3cnc4c(SCc5ccccc5)ncnc43)[C@H](O)C2O1 ; strain or isolate: TYPE 56 ; measure: MIC ; value: 3.2 µg/mL
O=S(=O)(O)c1cc(O)c2c(O)cc(S(=O)(=O)O)cc2c1 ; dose: 10 µg/mL ; method: cytopathic effect ; cell line: Human embryonic lung cells ; measure: inhibition ; value: 30%
CN(C)c1nc(C(F)(F)F)nc2c1ncn2Cc1ccccc1Cl ; dose: 8 µM ; method: plaque count ; strain or isolate: Serotype 5 ; cell line: M-HELA ; measure: inhibition ; value: 24%
CCO/N=C/c1ccc(OCCC2CCN(c3ccc(Cl)nn3)CC2)cc1 ; method: neutral red ; strain or isolate: 1983-CV48 (ICAM-1 receptor group 66) ; cell line: KB ; measure: EC50 ; value: 0.02 µM
Cc1ccc(Cn2cnc3c(N(C)C)nc(C(F)(F)F)nc32)cc1 ; method: plaque count ; strain or isolate: Serotype 5 ; cell line: M-HELA ; measure: EC50 ; value: >8 µM
O=S(=O)([O-])c1ccc2c(NS(=O)(=O)c3ccccc3)cc(S(=O)(=O)[O-])cc2c1 ; dose: 5 µg/mL ; method: cytopathic effect ; cell line: Human embryonic lung cells ; measure: inhibition ; value: 0%
CN(C)c1nc(C(F)(F)F)nc2c1ncn2Cc1ccc(S(C)(=O)=O)cc1 ; dose: 8 µM ; method: plaque count ; strain or isolate: Serotype 2 ; cell line: M-HELA ; measure: inhibition ; value: 36%
Cc1cc(CCCCCOc2c(Cl)cc(C3=NCCO3)cc2Cl)on1 ; method: plaque count ; strain or isolate: TYPE 8 ; cell line: HeLa ; measure: EC50 ; value: >6.2 µg/mL

Repeating the final 2 entries:

compound	dose	method	strain or isolate	cell line	measure	value
CN(C)c1nc(C(F)(F)F)nc2c1ncn2Cc1ccc(S(C)(=O)=O)cc1	8 µM	plaque count	Serotype 2	M-HELA	inhibition	36%
Cc1cc(CCCCCOc2c(Cl)cc(C3=NCCO3)cc2Cl)on1		plaque count	TYPE 8	HeLa	EC50	>6.2 µg/mL